A: 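Phenotypic screen: M. tuberculosis growth, glucose 7H9 medium, 3 days; the read-out is not stated. Compounds at 50 µM. Higher reads as more growth inhibition (inferred: compounds with an IC50 in retests scored well above the rest). Of about 69,000 compounds tested this way, about 760 (1.1%) reached 50% or more in at least one test.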
B: 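Growth of Mycobacterium tuberculosis over 4 days (cholesterol / DPPC medium with tyloxapol); the read-out is not stated. Compounds at 50 µM. Direction is inferred from retests: higher values go with more growth inhibition. Of about 69,000 compounds tested this way, about 370 (0.54%) reached 50% or more in at least one test.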

The filed quantity is “Percent Effect” (%). The controls that fix the scale are not given in the record; negative values are as filed. Many other results are left out here, so strong results are more common than in the screen. Two or more numbers in one place are separate tests of the same structure; such repeats can differ widely.

* CN1CCC(N2CC[C@H](c3nc4ccc(C(F)(F)F)cc4[nH]3)C2)CC1 | A: 17.42% & 51.51%
* CN1CCOC(CNCCCOc2ccc(C#N)cc2)C1 (centres undefined) | B: 3.338%
* O=C(NCCNc1ncccn1)C1CCCC1 | A: -2.146% & -8.449%
* Cc1noc(-c2c[nH]nc2C2CCCN2C(=O)c2ccccc2)c1C (centres undefined) | B: 53.3%
* NC(=O)c1nnn(-c2ccc(Br)cc2)n1 | A: 16.02%
* OCCN1CCN(Cc2cc3c(cc2Br)OCCO3)CC1 | A: -24.33% & -4.841%; B: -3.164%
* Cc1cc(C(O)CCNC(=O)c2ccc(Cl)s2)c(C)o1 (centres undefined) | A: 52.83%
* CC(Oc1ccc2c(c1)OCO2)C(=O)Nc1ccon1 (centres undefined) | A: 6.679%; B: -17.15%
* FC(F)Oc1ccc(NCc2nc(C3CC3)no2)c(OC(F)F)c1 | A: 36.04% & 26.67%
* Cc1cc(C(=O)NCc2csc(N(C)C)n2)c2ccc(C)c(C)c2n1 | A: 86.54%; B: 67.14%
* Cc1cccc(N(CC(=O)N2CCCCC2)C(=O)C2CCCO2)c1 (centres undefined) | A: 11.91%
* O=C(NCCC(O)c1cccs1)c1ccco1 (centres undefined) | A: 4.343%
* COc1c(C)cnc(CSc2nnc(N3CCCC3)s2)c1C | B: -11.99% & -8.867%
* Cc1nn(C2CCCC2)c2nc(C(C)(C)CN3CCN(C)CC3)[nH]c12 | A: 71.49%
* [H][C@@]12CCCCN(C)[C@]1([H])[C@@H](c1ccccc1)CCN2C(=O)c1ccccc1 | A: 57.53%
* Fc1ccccc1OC1CCN(CCn2cc3ccccc3n2)CC1 | A: 52.51%; B: 53.36%
* N#Cc1ccccc1CN1CCCC(c2nccn2CC2CC2)C1 (centres undefined) | A: -5.135% & -22.67%
* O=C(NCC1COCCO1)c1csc(Cc2ccccc2)n1 (centres undefined) | A: 15.15%
* O=C(c1cnn(-c2ccccc2)c1)N1CCN(c2cnccn2)CC1 | A: 2.545% & 19.8%; B: -7.531%
* C=Cc1ccc(C(=O)N2CCCC(Nc3ccccc3)C2)cc1 (centres undefined) | B: 29.82% & 25.98%
* CN1CCN(C2CCN(CCOc3ccccc3F)CC2)C1=O | A: 27.57%
* CN1CCOC(CNCCOc2ccc(C#N)cc2)C1 (centres undefined) | B: -11.15% & -3.97%
* Cc1ccsc1[C@@H]1CCN(C(=O)CCOc2ccccc2)C[C@H]1O | A: -11.29% & 56.84%
* CC1(C)CN(C(=O)CC2CCS(=O)(=O)CC2)C[C@]1(C)O | A: 15.08%
* CN1CCN(C(=O)c2cnsn2)c2ccc(F)cc21 | A: 9.473%
* O=C(c1cc(-c2cccs2)cs1)N1CCOCC1 | A: 31.8%
* COc1ccc(CC(=O)Nc2c(C)nc(N3CCCC3)nc2C)cc1 | A: 52.97% & 36.18%
* Cc1n[nH]c(C2CN(C(=O)c3cc(Cl)c[nH]3)CCO2)n1 (centres undefined) | A: 3.731% & -3.791%; B: 11.84%
* CN(C)C(=O)COCC1CN(Cc2ccoc2)Cc2nnn(C)c21 (centres undefined) | B: -29.46%
* CCc1cn[nH]c1C1CCN(c2cc(C)c3ccc(OC)cc3n2)CC1 | A: 18.96%

2 of the entries, repeated:

- FC(F)Oc1ccc(NCc2nc(C3CC3)no2)c(OC(F)F)c1 | A: 36.04% & 26.67%
- CN1CCC(N2CC[C@H](c3nc4ccc(C(F)(F)F)cc4[nH]3)C2)CC1 | A: 17.42% & 51.51%

The values are deposited in ChEMBL (CHEMBL3988442, “University of Dundee, Small-Polar-MMV Screening Library” (2021)).